Values from PubChem BioAssay AID624099 (ICCB-Longwood, 2012)
This is an unselected part of about 21,000 reagents tested. 497 of them (2.4%) count as active. 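Higher z means weaker E2 silencing; only reporter increases were scored, and knock-downs that hurt cell survival may mask genuine repressor factors.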 The numbers tell different reagents against one gene apart.

Assay: 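Knock-downs relieving repression by E2 of an HPV18 LCR luciferase reporter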 (primary screen)
Cell system: human C33A cervical carcinoma cells (HPV-negative) stably expressing BPV1 E2 and an HPV18 LCR luciferase reporter
Reagents: siRNA pool against human genes, 40 nM
Timing: 72 h
Measurement: 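HPV18 LCR reporter light per well, converted to plate-wise z-scores that exclude control wells, and averaged over triplicate plates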
Scale: mean z-score and z-score: higher = stronger reporter signal, weaker E2 silencing
Active means: 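Mean z ≥ 2 together with z ≥ 2 in two or more of the three replicates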

Gene,reagent no.,mean z-score,"z-score, replicate A","z-score, replicate B","z-score, replicate C",Call
ZNF114 (zinc finger protein 114),1,-0.4,-0.12,-0.38,-0.71,inactive
LINC02774 (long independently transcribed non-coding RNA 2774),1,-0.12,-0.01,-0.2,-0.15,inactive
NUF2 (NUF2 component of NDC80 kinetochore complex),1,-0.45,-0.59,-0.19,-0.56,inactive
CSRNP1 (cysteine and serine rich nuclear protein 1),1,-0.4,-0.25,-0.56,-0.38,inactive
CASQ1 (calsequestrin 1),1,-0.54,-0.65,-0.42,-0.56,inactive
STARD13 (StAR related lipid transfer domain containing 13),1,0.85,1.05,1.51,,inactive
HIF1A (hypoxia inducible factor 1 subunit alpha),1,-0.47,-0.46,-0.61,-0.35,inactive
LOC400921 (retired record),1,0.07,0.22,0.27,-0.29,inactive
XTBD1P1 (XTBD1 pseudogene 1),1,0.79,1.18,0.24,0.93,inactive

Continued, starting with the last 3 of the part before.
Gene,reagent no.,mean z-score,"z-score, replicate A","z-score, replicate B","z-score, replicate C",Call
HIF1A (hypoxia inducible factor 1 subunit alpha),1,-0.47,-0.46,-0.61,-0.35,inactive
LOC400921 (retired record),1,0.07,0.22,0.27,-0.29,inactive
XTBD1P1 (XTBD1 pseudogene 1),1,0.79,1.18,0.24,0.93,inactive
XPNPEP1 (X-prolyl aminopeptidase 1),1,-1.54,-0.93,-1.75,-1.96,inactive
LZTFL1 (leucine zipper transcription factor like 1),1,-0.56,-0.46,-0.67,-0.54,inactive
PODXL (podocalyxin like),1,0.35,0.43,0.26,0.35,inactive
SEPHS2 (selenophosphate synthetase 2),1,1.53,1.66,1.59,1.35,inactive
GNRH1 (gonadotropin releasing hormone 1),1,-0.81,-0.8,-0.78,-0.84,inactive
PDLIM4 (PDZ and LIM domain 4),1,0.61,0.86,0.45,0.51,inactive
KLHDC7A (kelch domain containing 7A),1,-0.15,-0.07,-0.17,-0.22,inactive
VAC14 (VAC14 component of PIKFYVE complex),1,2.35,2.68,2.02,,active
VAC14 (VAC14 component of PIKFYVE complex),2,0.32,0.18,0.26,0.53,inactive
HEATR3 (HEAT repeat containing 3),1,0.12,0.03,0.07,0.24,inactive
MAPK15 (mitogen-activated protein kinase 15),1,-0.99,-0.63,-1.04,-1.31,inactive
PI4KB (phosphatidylinositol 4-kinase beta),1,-1.46,-1.32,-1.61,-1.46,inactive
TECPR1 (tectonin beta-propeller repeat containing 1),1,-0.67,-0.81,-0.44,-0.74,inactive
PP2D1 (protein phosphatase 2C like domain containing 1),1,0.03,0.11,0.1,-0.13,inactive
